Measured values from several laboratories, pooled; numbers as filed in NIAID ChemDB.

Shared fields: tests in culture; agent: Mycobacterium avium; measure: MIC

Blank or dashed fields: not listed here. Neighbouring rows are from separate reports.

COc1ccc2oc(=O)n(-c3ccccc3)c(=O)c2c1 ; strain: CNCTC MY330/88 ; result: 125 µM
CCCCOc1ccc(NC(=O)OCCN2CCCCC2)cc1 ; strain: MY330/88 ; result: 125 µM
Cc1ccc(-n2c(=S)oc3ccc(C)cc3c2=S)cc1 ; setting: 21 d ; strain: MY330/88 ; result: 2 µM
CCCCCOc1ccc(NC(=O)OCCN2CCOCC2)cc1 ; strain: MY330/88 ; result: 32 µM
O=c1oc2ccc(Cl)cc2c(=O)n1-c1ccc(Br)cc1 ; strain: CNCTC MY330/88 ; result: 4 µM
Fc1ccc2oc(=S)n(-c3ccc(C(F)(F)F)cc3)c(=S)c2c1 ; setting: 21 d ; strain: MY330/88 ; result: 32 µM
CCOC(=O)c1ccc(-n2c(=O)oc3ccccc3c2=O)cc1 ; strain: CNCTC MY330/88 ; result: 32 µM
CCCCCCCOc1ccccc1NC(=O)OCCN(C)C ; strain: MY330/88 ; result: 16 µM
Clc1ccc2c(c1)nc1cc(Nc3ccccc3)c(=NC3CCCCC3)cc-1n2-c1ccccc1 ; strain: ATCC ; result: 0.5 µg/mL
CCCCOc1ccc(NC(=O)OCCN(C)C)cc1 ; strain: MY330/88 ; result: 125 µM
O=c1oc2ccccc2c(=O)n1-c1ccc(Cl)cc1 ; strain: CNCTC MY330/88 ; result: 62 µM
Fc1ccc(-n2c(=S)oc3ccc(Br)cc3c2=S)cc1 ; setting: 14 d ; strain: MY330/88 ; result: 16 µM
CCCCCOc1ccc(NC(=O)OCCN(C)C)cc1 ; strain: MY330/88 ; result: 16 µM
COc1ccc(-n2c(=O)oc3ccc(Cl)cc3c2=O)cc1 ; strain: CNCTC MY330/88 ; result: 16 µM
O=c1oc2ccc(Br)cc2c(=S)n1-c1ccc(Cl)cc1 ; setting: 21 d ; strain: MY330/88 ; result: 32 µM
Cc1ccc2oc(=O)n(-c3ccc([N+](=O)[O-])cc3)c(=O)c2c1 ; strain: CNCTC MY330/88 ; result: 16 µM
O=c1oc2ccc(F)cc2c(=S)n1-c1ccc(Cl)c(Cl)c1 ; setting: 21 d ; strain: MY330/88 ; result: 8 µM
CC[C@H]1OC(=O)[C@H](C)C(=O)[C@H](C)[C@@H](O[C@@H]2O[C@H](C)C[C@H](N(C)C)[C@H]2O)[C@](C)(OC)C[C@@H](C)C(=O)[C@H](C)[C@H]2N(CCCCn3cnc(-c4cccnc4)c3)C(=O)O[C@]12C ; strain: Isolate 1257 ; result: 10 µg/mL

Repeating the final 2 entries:

structure | setting | strain | result
O=c1oc2ccc(F)cc2c(=S)n1-c1ccc(Cl)c(Cl)c1 | 21 d | MY330/88 | 8 µM
CC[C@H]1OC(=O)[C@H](C)C(=O)[C@H](C)[C@@H](O[C@@H]2O[C@H](C)C[C@H](N(C)C)[C@H]2O)[C@](C)(OC)C[C@@H](C)C(=O)[C@H](C)[C@H]2N(CCCCn3cnc(-c4cccnc4)c3)C(=O)O[C@]12C |  | Isolate 1257 | 10 µg/mL